Record: PubChem BioAssay AID504761 (Drosophila RNAi Screening Center, 2011)
The deposit covers about 22,000 reagents; shown is an unselected part of those that have a named target and a result. In the full data, 116 (0.52%) got an active call. 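Calls depend on retest data that are not deposited; infection was ranked per plate without normalising between plates; the unit of the infection score is not given.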 Raw values vary from plate to plate and are shown uncorrected. The numbers tell different reagents against one gene apart. A plus sign joins genes that one reagent is predicted to hit. Reagent sequences are not shown. Not given: the amount of reagent, the time to read-out.

Test: 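Genome-wide fly cell screen for genes dengue virus requires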 (primary screen)
System: D.Mel-2 cells from Drosophila
Knock-down reagent: long dsRNA against Drosophila genes
Challenge: infection with dengue virus type 2; dose and infection time not stated
Detection: 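Cells stained for dengue envelope protein and imaged; percent of infected cells per well on duplicate plates, ranked by infection, with stained nuclei counted for cell number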
Scale: infection score: higher = more virus-infected cells; cell count: higher = more cells in the well
Active means: 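Low infection ranks in the two replicates (chance level up to 0.065) followed by a retest with a 1.5-fold or larger significant decrease, p below 0.05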
Calls: active = confirmed: knock-down lowers infection; inactive = not picked or not confirmed

| Target gene | reagent no. | infection score, replicate 1 | infection score, replicate 2 | cell count, replicate 1 | cell count, replicate 2 | call |
| --- | --- | --- | --- | --- | --- | --- |
| hiro | 1 | 6.36 | 13.7 | 6713 | 5641 | inactive |
| hiro | 2 | 16.9 | 14 | 6064 | 6084 | inactive |
| Coq7 + shf | 1 | 15.4 | 7.34 | 6553 | 6481 | inactive |
| Obp56b | 1 | 1.74 | 2.29 | 5858 | 6250 | inactive |
| Fs | 1 | 5.65 | 2.89 | 6023 | 6473 | inactive |
| Fs | 2 | 6.86 | 9.3 | 6287 | 6460 | inactive |
| Fs | 3 | 1.11 | 1.13 | 6204 | 5843 | inactive |
| CG44005 | 1 | 1.39 | 13.5 | 5775 | 6359 | inactive |
| CG44005 | 2 | 0.91 | 9.38 | 5698 | 6724 | inactive |
| CG6729 | 1 | 8.43 | 6.37 | 6485 | 6448 | inactive |
| CG6729 | 2 | 1.4 | 6.27 | 5799 | 4303 | inactive |
| CG6729 | 3 | 17.7 | 25.1 | 5555 | 5284 | inactive |
| karr | 1 | 1.5 | 4.14 | 6007 | 5263 | inactive |
| Ptth | 1 | 12.7 | 2.53 | 5973 | 5888 | inactive |
| CG33062 | 1 | 3.13 | 1.34 | 6653 | 6395 | inactive |
| CG33062 | 2 | 5.15 | 4.03 | 6413 | 6429 | inactive |
| smash | 1 | 15.7 | 22 | 2578 | 6988 | inactive |
| smash | 2 | 7.44 | 16 | 6334 | 5562 | inactive |
| Cyp4ac2 | 1 | 6.35 | 5.41 | 6459 | 6230 | inactive |
| Pef | 1 | 8.9 | 11.8 | 6171 | 6481 | inactive |
| Cul6 | 1 | 3.44 | 6.52 | 6571 | 6645 | inactive |
| dia | 1 | 3.71 | 2.75 | 4397 | 5596 | inactive |
| dia | 2 | 1.19 | 4.36 | 6063 | 5178 | inactive |

Look-ups from above.
Result of Ptth under “infection score, replicate 2”: 2.53
Entry for smash #1 under “cell count, replicate 2”: 6988
CG6729 #3, infection score, replicate 1: 17.7
Under “infection score, replicate 1”, hiro #1 has 6.36
